This assay has as its target SARS-CoV-2 WA1/2020 RBD recombinant protein (SARS-CoV-2, UniProt P0DTC2). Briefly: SPR. The conditions noted are these: both partners purified.

Broadly, the Kd is a measure of binding affinity in units of concentration. As usually defined, the koff is the rate constant with which the complex falls apart. As usually defined, the kon is a measure of how fast the partners come together.

B1: 2G1 Fab (Fab, V domains shown)
VH: EVQLLESGGGQIQPGGSLRLSCAASGFSFISNYMSWVRQAPGKGLEWVSVIYSGGSTFYADSVKGRFTISRDKSKNTLYLQMNSLRAEDTAFYYCARGLIRGIIMTGAFDIWDEGTMVTVSS
VL: QSALTQPPSASGSPGQSVTISCTGTSSDVGGSNYVSWYQQHPGKAPKLMISEVSKRPSGVPDRFSGSKSGNTASLTVSGLQAEDEADYYCSSYAGSNNWVFGGGTKLTVL
For B1, the Kd worked out at 0.41 nM, the koff was 0.00105 s⁻¹ and the kon amounted to 2.55e+06 M⁻¹ s⁻¹.

The record behind these values is article PMC8847360, “Broad ultra-potent neutralization of SARS-CoV-2 variants by monoclonal antibodies specific to the tip of RBD” (Cell Discovery, 2022).
